Assay results as given in PMC4216219 (Journal of Medicinal Chemistry, 2014).
Like-named read-outs stand apart in the source and are kept apart here.

Legend:
visceral leishmaniasis = conditions: cited from earlier work
[1] = test system: J774A.1 (mouse macrophage cell line)
L. donovani LV82 = assay: Murine visceral leishmaniasis model
[2] = pH 7.4 vs pH 4.0
[3] = test system: L. donovani axenic amastigotes; conditions: presence vs absence of folinic acid
[4] = test system: L. donovani MHOM/NP/02/BPK164/1; conditions: originally found; cited from earlier work

## C[C@@H]1[C@H](O)[C@@H](C)/C=C/C=C/C=C/C=C/C=C/C=C/C=C/[C@H](O[C@@H]2O[C@H](C)[C@@H](O)[C@H](N)[C@@H]2O)C[C@@H]2O[C@](O)(C[C@@H](O)C[C@@H](O)[C@H](O)CC[C@@H](O)C[C@@H](O)CC(=O)O[C@H]1C)C[C@H](O)[C@H]2C(=O)O [Amphotericin B]
Visceral leishmaniasis
  cure rate: over 90%

## c1ccc(CNc2nc(NCc3ccccc3)c3ccccc3n2)cc1 [Compound 10, N^2,N^4-Dibenzylquinazoline-2,4-diamine]
[1]; J774.A1, read-out: EC50 J774A.1 in the absence of folinic acid
  EC50: 84.2 ± 2.8 µM
[1]; J774.A1, read-out: EC50 J774A.1 in the presence of folinic acid
  EC50: 84.8 ± 2.2 µM

## CNc1nc(NCc2ccccc2)nc2ccccc12 [Compound 15, N^2-Benzyl-N^4-methylquinazoline-2,4-diamine]
L. donovani LV82; 5 × 30 mg/kg ip
  antileishmanial efficacy (liver parasitemia): did not show significant antileishmanial efficacy

## CCCCNc1nc(NCc2ccccc2)nc2ccccc12 [Compound 16, N^2-Benzyl-N^4-butylquinazoline-2,4-diamine]
L. donovani LV82; 5 × 10 mg/kg ip, 45% HPβCD vehicle
  parasite burden vs vehicle control group: no significant difference
[2]
  decrease in permeability from neutral to acidic pH: 3 fold

## Cc1ccc2c(NCc3ccco3)nc(NC(C)C)nc2c1 [Compound 23, N^4-(Furan-2-ylmethyl)-N^2-isopropyl-7-methylquinazoline-2,4-diamine]
L. donovani LV82; 5 × 15 mg/kg ip, compared to the vehicle control
  inhibition of liver parasitemia: 37%
[2]
  decrease in permeability from neutral to acidic pH: ~12 fold

## CN(Cc1cnc2nc(N)nc(N)c2n1)c1ccc(C(=O)N[C@@H](CCC(=O)O)C(=O)O)cc1 [methotrexate, reference compound]
[3]
  effect of folinic acid on EC50, L. donovani axenic amastigotes: dramatically increased the EC50 values

## CCCCCCCCCCCCCCCCOP(=O)([O-])OCC[N+](C)(C)C [miltefosine]
[3]
  effect of folinic acid on EC50, L. donovani axenic amastigotes: not affected

## CCc1nc(N)nc(N)c1-c1ccc(Cl)cc1 [pyrimethamine, reference compound]
[3]
  effect of folinic acid on EC50, L. donovani axenic amastigotes: dramatically increased the EC50 values

## O.O.O.O.O.O.O.O.O.O=C([O-])[C@@H]1[O][Sb](=[O])([O][Sb]2(=[O])[O][C@H]([C@H](O)CO)[C@H](O)[C@H](C(=O)[O-])[O]2)[O][C@H]([C@H](O)CO)[C@@H]1O.[Na+].[Na+].[Na+] (stereo partly drawn) [sodium stibogluconate]
[4]
  fold resistance of BPK164/1 compared to reference strain BPK206/0: 6 fold
